# Potato spindle tuber viroid, loop 15: variant abundance in plants

Region: loop 15 of PSTVd (intermediate strain), upper and lower strand joined, each 5' to 3', the first 7 letters being the upper strand, closing pairs included. Wild type: GGAAACCGCUACUAC. Varied positions (N): GGAAACCGNNNNNNC.

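A pool of all variants was put on leaves of three Nicotiana benthamiana plants. Progeny were sequenced from the inoculated region (day 5), the margin of the inoculated leaf (day 10) and systemic leaves (day 12).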

Values are reads per thousand in the sample; higher means more abundant, 0 means not found. Each site shows the three plants. "Pool" is the share in the plasmid pool used as inoculum, on the same scale. The inoculated region was read from the minus strand, the other sites from the plus strand. Wild type was 33.9 per thousand in the pool and the most common sequence in every sample (inoculated region 202, 200, 159; leaf margin 724, 746, 710; systemic leaves 856, 883, 880).

sequence,pool,inoculated region,leaf margin,systemic leaves
GGAAACCGUCGACUC,0.240,0.0983 / 0.0803 / 0.0762,0 / 0.0223 / 0.0200,0.0322 / 0 / 0
GGAAACCGUGUUAUC,0.112,0.0819 / 0.0482 / 0.190,0 / 0 / 0.0601,0 / 0 / 0
GGAAACCGUGGCCCC,0.160,0.0819 / 0.145 / 0.0381,0 / 0 / 0.0200,0 / 0 / 0
GGAAACCGUAAGGGC,0.176,0.131 / 0.112 / 0.0952,0 / 0.0223 / 0,0 / 0 / 0
GGAAACCGCUUCUAC,0.768,0.655 / 0.691 / 0.781,0.550 / 0.334 / 0.280,0.531 / 0.257 / 0.0912
GGAAACCGGAGAUCC,0.144,0.180 / 0.161 / 0.171,0.0485 / 0 / 0.0200,0 / 0 / 0
GGAAACCGCCUCGCC,0.144,0.0819 / 0.0803 / 0.171,0 / 0.0223 / 0.0401,0 / 0 / 0
GGAAACCGUACGCCC,0.272,0.0819 / 0.0803 / 0.0952,0 / 0 / 0.100,0 / 0 / 0
GGAAACCGUUUUUGC,0.240,0.164 / 0.112 / 0.152,0 / 0 / 0,0 / 0 / 0
GGAAACCGACAUAUC,0.256,0.344 / 0.225 / 0.305,0.0808 / 0.111 / 0.220,0.0966 / 0 / 0
GGAAACCGGGCUAUC,0.240,0.0983 / 0.0803 / 0.0762,0 / 0 / 0,0 / 0 / 0
GGAAACCGCGAAUUC,0.192,0.459 / 0.386 / 0.438,0.0970 / 0.0891 / 0.200,0.113 / 0.0908 / 0.182
GGAAACCGAGCUGUC,0.176,0.0328 / 0.0643 / 0.0381,0.0323 / 0.0223 / 0,0 / 0 / 0
GGAAACCGGGUCAUC,0.256,0.0819 / 0.129 / 0.228,0 / 0.0223 / 0.0401,0.0161 / 0 / 0
GGAAACCGCGCAUAC,0.288,0.295 / 0.321 / 0.381,0.129 / 0.0445 / 0.120,0.0644 / 0.106 / 0.0456
GGAAACCGGGUACUC,0.240,0.0655 / 0.0964 / 0.209,0 / 0 / 0,0 / 0 / 0
GGAAACCGCCGAUGC,0.272,0.360 / 0.386 / 0.343,0.113 / 0.0223 / 0.100,0.0805 / 0 / 0
GGAAACCGCUGAGUC,0.224,0.0328 / 0.112 / 0.0381,0.0162 / 0 / 0,0 / 0 / 0
GGAAACCGGUUCCCC,0.112,0.0819 / 0.0803 / 0.0190,0 / 0 / 0,0 / 0 / 0
GGAAACCGACACCUC,0.240,0.262 / 0.466 / 0.190,0.0162 / 0 / 0,0.0322 / 0 / 0
GGAAACCGUAGGCUC,0.304,0.0983 / 0.145 / 0.0762,0 / 0 / 0.0200,0 / 0 / 0
GGAAACCGGUGUCUC,0.224,0.0819 / 0.0803 / 0.0762,0 / 0 / 0.0200,0 / 0 / 0
GGAAACCGUUGUAUC,0.0640,0.393 / 0.321 / 0.362,0.162 / 0.0445 / 0.120,0 / 0 / 0
GGAAACCGAUCUUAC,0.240,0.246 / 0.241 / 0.343,0.129 / 0.134 / 0.140,0.0483 / 0.0454 / 0.0912
GGAAACCGGUCUGGC,0.240,0.0983 / 0.0482 / 0.0762,0 / 0.0445 / 0.0401,0 / 0 / 0.0456
GGAAACCGGUCAAGC,0.256,0.0819 / 0.0964 / 0.0571,0 / 0.0223 / 0,0.0161 / 0 / 0
GGAAACCGAGUGACC,0.208,0.0655 / 0.0964 / 0.0952,0 / 0 / 0,0.0161 / 0 / 0
GGAAACCGGGUAGAC,0.176,0.0655 / 0.0803 / 0.114,0 / 0 / 0.0601,0 / 0 / 0
GGAAACCGCUUUGUC,0.224,0.180 / 0.418 / 0.152,0 / 0 / 0.0200,0 / 0 / 0
GGAAACCGGUAAUGC,0.208,0.393 / 0.193 / 0.305,0.146 / 0.0891 / 0.0601,0.145 / 0.0605 / 0.137
GGAAACCGUUAAAGC,0.192,0.0819 / 0.112 / 0.0762,0.0162 / 0 / 0.0200,0 / 0 / 0
GGAAACCGACAACCC,0.256,0.0328 / 0.0964 / 0.133,0.0162 / 0 / 0,0 / 0 / 0
GGAAACCGGUGAAUC,0.192,0.0655 / 0.0964 / 0.152,0 / 0 / 0.0401,0 / 0 / 0
GGAAACCGAGGGUUC,0.240,0.328 / 0.418 / 0.362,0.178 / 0.0891 / 0.100,0.113 / 0.0454 / 0.0912
GGAAACCGCUGAUUC,0.192,0.197 / 0.145 / 0.305,0.0485 / 0.111 / 0.120,0.0483 / 0 / 0
GGAAACCGGUGUUUC,0.192,0.0491 / 0.112 / 0.0952,0 / 0.0223 / 0.0200,0.0161 / 0 / 0
GGAAACCGUGCAGGC,0.304,0.131 / 0.0964 / 0.0952,0.0162 / 0.0223 / 0,0 / 0 / 0
GGAAACCGUAGCUGC,0.224,0.278 / 0.145 / 0.0952,0 / 0 / 0.0401,0.0161 / 0 / 0
GGAAACCGGGUACCC,0.208,0.0655 / 0.0482 / 0.0952,0 / 0.0223 / 0,0.0161 / 0 / 0
GGAAACCGAAGCUUC,0.208,0.0819 / 0.112 / 0.114,0.0162 / 0 / 0.0401,0 / 0 / 0.0228
GGAAACCGAGCCACC,0.320,0.0328 / 0.0803 / 0.0762,0 / 0 / 0.0401,0 / 0 / 0
GGAAACCGGACUAAC,0.240,0 / 0.0643 / 0.114,0 / 0 / 0.0200,0 / 0 / 0
GGAAACCGGUCGCCC,0.192,0.0983 / 0.0482 / 0.0762,0 / 0 / 0,0 / 0.0151 / 0
GGAAACCGGUAUGCC,0.128,0.131 / 0.0482 / 0.114,0 / 0 / 0.0200,0.0161 / 0 / 0
GGAAACCGUUCAUCC,0.160,0.0819 / 0.112 / 0.0952,0 / 0 / 0.0200,0 / 0 / 0
GGAAACCGCGAAUAC,0.288,0.409 / 0.418 / 0.343,0.0970 / 0.0668 / 0.180,0.0644 / 0.0454 / 0.0228
GGAAACCGGCAGGGC,0.240,0.0328 / 0.177 / 0.133,0 / 0 / 0,0 / 0 / 0
GGAAACCGUAGGCGC,0.208,0.115 / 0.0482 / 0.0571,0.0162 / 0 / 0.0200,0 / 0 / 0
GGAAACCGGAUACGC,0.224,0.115 / 0.0643 / 0.114,0 / 0.0223 / 0.0601,0 / 0 / 0
GGAAACCGAAGGAAC,0.208,0.0983 / 0.0643 / 0.0762,0.0162 / 0 / 0.0200,0 / 0 / 0
GGAAACCGAUUACCC,0.112,0.0983 / 0.0482 / 0.0381,0 / 0 / 0.0200,0 / 0 / 0
GGAAACCGCUGGCAC,0.336,0.0819 / 0.129 / 0.0381,0 / 0 / 0.0401,0 / 0 / 0
GGAAACCGUUCUGCC,0.224,0.0328 / 0.0321 / 0.133,0 / 0.0223 / 0,0 / 0 / 0
GGAAACCGCUAUAGC,0.256,0.0655 / 0.0803 / 0.0571,0 / 0 / 0,0 / 0 / 0.0228
GGAAACCGACUACCC,0.192,0.115 / 0.0643 / 0.0762,0 / 0 / 0.0401,0 / 0 / 0
GGAAACCGGGAUUAC,0.256,0.377 / 0.289 / 0.343,0.129 / 0.0223 / 0.180,0.0644 / 0.106 / 0.0684
GGAAACCGUCCACGC,0.256,0.0819 / 0.0482 / 0.114,0.0162 / 0 / 0.0401,0.0322 / 0 / 0
GGAAACCGUAUUUAC,0.144,0.262 / 0.241 / 0.343,0.0808 / 0.0891 / 0.120,0.0805 / 0.0151 / 0.0684
GGAAACCGUCCAACC,0.224,0.164 / 0.0964 / 0.152,0 / 0.0445 / 0,0 / 0 / 0
GGAAACCGAUAGCAC,0.240,0.377 / 0.273 / 0.400,0.129 / 0.0445 / 0.160,0.0322 / 0.0151 / 0.0912
GGAAACCGGUCCCCC,0.224,0.131 / 0.161 / 0.133,0.0162 / 0.0223 / 0,0 / 0 / 0
GGAAACCGAGUUCUC,0.240,0.0164 / 0.0482 / 0.0381,0 / 0 / 0,0 / 0 / 0
GGAAACCGCUGUCCC,0.304,0.0328 / 0.0482 / 0.114,0 / 0 / 0.0200,0 / 0 / 0
GGAAACCGUGAUCGC,0.176,0.0983 / 0.0161 / 0.0571,0 / 0 / 0,0.0161 / 0 / 0
GGAAACCGUUCGUUC,0.192,0.360 / 0.209 / 0.267,0.0808 / 0.0445 / 0.180,0.0161 / 0.0756 / 0.0912
GGAAACCGAAGUGAC,0.256,0.0655 / 0.0964 / 0.0190,0.0162 / 0 / 0,0 / 0 / 0

7 of these entries, quoted again:

| sequence | pool | inoculated region | leaf margin | systemic leaves |
|---|---|---|---|---|
| GGAAACCGGUUCCCC | 0.112 | 0.0819 / 0.0803 / 0.0190 | 0 / 0 / 0 | 0 / 0 / 0 |
| GGAAACCGUAUUUAC | 0.144 | 0.262 / 0.241 / 0.343 | 0.0808 / 0.0891 / 0.120 | 0.0805 / 0.0151 / 0.0684 |
| GGAAACCGUAGCUGC | 0.224 | 0.278 / 0.145 / 0.0952 | 0 / 0 / 0.0401 | 0.0161 / 0 / 0 |
| GGAAACCGGUAAUGC | 0.208 | 0.393 / 0.193 / 0.305 | 0.146 / 0.0891 / 0.0601 | 0.145 / 0.0605 / 0.137 |
| GGAAACCGGAGAUCC | 0.144 | 0.180 / 0.161 / 0.171 | 0.0485 / 0 / 0.0200 | 0 / 0 / 0 |
| GGAAACCGCGAAUUC | 0.192 | 0.459 / 0.386 / 0.438 | 0.0970 / 0.0891 / 0.200 | 0.113 / 0.0908 / 0.182 |
| GGAAACCGCUGGCAC | 0.336 | 0.0819 / 0.129 / 0.0381 | 0 / 0 / 0.0401 | 0 / 0 / 0 |

Sequences that differ at fixed positions probably stem from PCR or sequencing errors, and defective variants can be carried along by functional ones. Samples held 43,870 to 66,106 reads, so the smallest values rest on one or two reads.

The measurements come from Wu et al. 2024 (doi:10.1371/journal.ppat.1012142).